Measured values from several laboratories, pooled; numbers as filed in NIAID ChemDB.

All rows: target-level tests; organism: Hepatitis C virus; endpoint: IC50

ICn: concentration for n% inhibition. Blank or dashed fields: not listed here. Lines come from different laboratories, so protocols vary.

CC1CCC(C(=O)N(c2cc(-c3ccccc3)sc2C(=O)O)C(C)C)CC1 ; target: NS5B polymerase ; value: 1.5 µM
C=C1CC(NC(=O)[C@@H]2C[C@@H](Oc3cc(-c4ccccc4)nc4cc(OC)ccc34)CN2C(=O)[C@@H](NC(=O)OC(C)(C)C)C(C)(C)C)(C(=O)O)C1 ; target: HCV NS3/NS4A protease ; value: 0.6 µM
C=CCC(C=O)NC(=O)[C@H](CCC(=O)O)NC(=O)[C@H](CCC(=O)O)NC(=O)[C@H](CCSC)NC(=O)[C@H](CCC(=O)O)NC(=O)[C@H](CC(=O)O)NC(C)=O ; target: NS3/NS4A protease ; value: 1.8 µM
C=C[C@H]1CC1(NC(=O)[C@@H]1C[C@@H](Oc2cc(CN(C)c3ccccc3)nc3ccccc23)CN1C(=O)[C@@H](NC(=O)OC(C)(C)C)C(C)(C)C)C(=O)O ; target: HCV NS3/NS4A protease ; value: 3 µM
COc1ccc(CCNC(=O)c2ccc3c(c2)nc(-c2ccccn2)n3C2CCCCC2)cc1OC ; target: NS5B polymerase ; value: 12 µM
COC(=O)c1nc(-c2sccc2NC(=O)OCc2cc(Br)ccc2OC)[nH]c(=O)c1O ; target: HCV polymerase ; value: <50 µM
CC[C@H]1CC1(NC(=O)[C@@H]1C[C@@H](OCc2cccc3cccnc23)CN1C(=O)[C@@H](NC(=O)OC(C)(C)C)C1CCCCC1)C(=O)O ; target: HCV NS3/NS4A protease ; value: 32 µM
CC[C@H](C)[C@H](NC(=O)[C@@H](NC(=O)[C@H](CCC(=O)O)NC(=O)[C@H](CC(=O)O)NC(C)=O)C(c1ccccc1)c1ccccc1)C(=O)N[C@@H](CC1CCCCC1)C(=O)N[C@@H](CS)C(=O)O ; target: HCV NS3 protease ; value: 0.06 µM
NCc1cccc(COC(=O)Nc2ccsc2-c2nc(C(=O)O)c(O)c(=O)[nH]2)c1 ; target: HCV polymerase ; value: <25 µM
CC[C@H](C)[C@H](NC(=O)[C@H](CC(C)C)NC(=O)[C@@H](CCC(=O)O)NC(=O)[C@H](CC(=O)O)NC(=O)O)C(=O)N[C@@H](CC1CCCCC1)C(=O)N[C@@H](CS)C(=O)O ; target: NS3/NS4A protease ; value: 0.01 µM
C=C[C@H]1CC1(NC(=O)[C@@H]1C[C@@H](Oc2cc(C(F)(F)F)nc3c(C(F)(F)F)cccc23)CN1C(=O)[C@@H](Nc1ccc(C(=O)OC(C)(C)C)cc1)C(C)(C)C)C(=O)O ; target: HCV NS3/NS4A protease ; value: 1.95 µM
Cc1ccc([N+](=O)[O-])c(COC(=O)Nc2ccsc2-c2nc(C(=O)O)c(O)c(=O)[nH]2)c1 ; target: HCV polymerase ; value: <25 µM
CSCC[C@H](NC(=O)[C@H](CCC(=O)O)NC(=O)[C@@H](CC(=O)O)NC(C)=O)C(=O)N[C@@H](CCC(=O)O)C(=O)N[C@@H](CCC(=O)O)C(=O)N[C@@H](CS)C(=O)O ; target: HCV NS3 protease ; value: 1 µM
COCCNc1nc(Nc2ccc3[nH]ncc3c2)nc(OC)n1 ; target: NS5B polymerase ; value: >0.1 µg/mL
O=C(NCc1ccccc1)Nc1cscc1-c1nc(C(=O)O)c(O)c(=O)[nH]1 ; target: HCV polymerase ; value: <25 µM
CC[C@H](C)[C@H](NC(=O)[C@@H](NC(=O)[C@H](CCC(=O)O)NC(C)=O)C(c1ccccc1)c1ccccc1)C(=O)N[C@@H](CC1CCCCC1)C(=O)N[C@@H](CS)C(=O)O ; target: HCV NS3 protease ; value: 2.4 µM
CC(C)C[C@H](NC(=O)[C@H](CC(=O)O)NC(=O)[C@H](CC1CCCCC1)NC(=O)[C@@H]1CCCC[C@H]1C(=O)O)C(N)=O ; target: NS3/NS4A protease ; value: 15 µM
Cc1c(CC(=O)Nc2ccsc2-c2nc(C(=O)O)c(O)c(=O)[nH]2)sc2ccccc12 ; target: HCV polymerase ; value: <25 µM
CC(C)(C)OC(=O)N[C@H](C(=O)N1C[C@H](Oc2cc(-c3ccccc3)nc3ccc([N+](=O)[O-])cc23)C[C@H]1C(=O)NC1(C(=O)O)CC1)C1CCCCC1 ; target: HCV NS3/NS4A protease ; value: 2.8 µM
CSCC[C@H](NC(=O)[C@H](CCC(=O)O)NC(=O)[C@H](CC(=O)O)NC(C)=O)C(=O)N[C@@H](CCC(=O)O)C(=O)N[C@@H](CC1CCCCC1)C(=O)N[C@@H](CS)C(=O)O ; target: NS3/NS4A protease ; value: 0.35 µM
O=C(NO)c1sc2ccccc2c1S(=O)(=O)c1ccccc1 ; target: Nonstructural protein 3/4A ; read by: fluorescence ; conditions: genotype 1b ; value: 126 µM
C=CCC(C=O)NC(=O)[C@H](CC1CCCCC1)NC(=O)[C@H](CCC(=O)O)NC(=O)[C@@H](NC(=O)[C@H](CCC(=O)O)NC(=O)[C@H](CC(=O)O)NC(C)=O)C(c1ccccc1)c1ccccc1 ; target: NS3/NS4A protease ; value: 0.007 µM
O=C(Nc1cccc(-c2nc(C(=O)O)c(O)c(=O)[nH]2)c1)c1cccs1 ; target: HCV polymerase ; value: <100 µM
O=C(O)c1cc2nc(-c3ccoc3)c(C3CCCCC3)c(=O)n2[nH]1 ; target: NS5B polymerase ; value: <1 µM
CC(C)(C)OC(=O)c1ccc(N[C@H](C(=O)N2C[C@H](Oc3nc(-c4ccccc4)nc4ccccc34)C[C@H]2C(=O)NC2(C(=O)O)C[C@@H]2C2CC2)C(C)(C)C)cc1 ; target: HCV NS3/NS4A protease ; value: 0.64 µM
N[C@@H](Cc1ccccc1)C(=O)Nc1ccsc1-c1nc(C(=O)O)c(O)c(=O)[nH]1 ; target: HCV polymerase ; value: <25 µM
CSCC[C@H](NC(=O)CCCC(=O)O)C(=O)N[C@@H](CCC(=O)O)C(=O)N[C@@H](CCC(=O)O)C(=O)N[C@@H](CS)C(=O)O ; target: HCV NS3 protease ; value: 69 µM
CSCC[C@H](NC(=O)[C@H](CCC(=O)O)NC(=O)[C@@H](CC(=O)O)NC(C)=O)C(=O)N[C@@H](CCC(=O)O)C(=O)N[C@@H](CCC(=O)O)C(=O)N[C@@H](CS)C(=O)O ; target: NS3/NS4A protease ; value: 1 µM
CC(C)[C@H](NC(=O)OC(C)(C)C)C(=O)N1C[C@H](Oc2ccnc3cc(Cl)ccc23)C[C@H]1C(=O)NC1(C(=O)O)CC1 ; target: HCV NS3/NS4A protease ; value: 9.7 µM
CC(=O)N[C@@H](CC(=O)O)C(=O)N[C@@H](CCC(=O)O)C(=O)N[C@H](C(=O)N[C@@H](CCC(=O)O)C(=O)N[C@@H](CC1CCCCC1)C(=O)N[C@@H](CS)C(=O)O)c1ccccc1 ; target: HCV NS3 protease ; value: 0.12 µM
O=C(CCc1ccsc1)Nc1ccsc1-c1nc(C(=O)O)c(O)c(=O)[nH]1 ; target: HCV polymerase ; value: <25 µM
C=C[C@H]1CC1(NC(=O)[C@@H]1C[C@@H](Oc2cc(-c3ccccc3)nc3cc(OC)ccc23)CN1C(=O)[C@@H](NC(=O)c1cc[nH]c1)C(C)(C)C)C(=O)O ; target: HCV NS3/NS4A protease ; value: 0.3 µM
O=C(O)c1ccc2c(c1)nc(-c1ccc(OCc3cc(C(=O)N4CCC(O)CC4)ccc3-c3ccc(Cl)cc3)cc1F)n2C1CCCCC1 ; target: NS5B polymerase ; value: 0.28 µM
CC(=O)N[C@@H](CC(=O)O)C(=O)N[C@@H](CCC(=O)O)C(=O)N[C@H](C(=O)N[C@@H](CCC(=O)O)C(=O)N[C@@H](CC1CCCCC1)C(=O)N[C@H](C=O)CC(F)F)C(c1ccccc1)c1ccccc1 ; target: NS3/NS4A protease ; value: 0.0005 µM

Again, the opening 3 rows:

smiles,target,read by,conditions,value
CC1CCC(C(=O)N(c2cc(-c3ccccc3)sc2C(=O)O)C(C)C)CC1,NS5B polymerase,,,1.5 µM
C=C1CC(NC(=O)[C@@H]2C[C@@H](Oc3cc(-c4ccccc4)nc4cc(OC)ccc34)CN2C(=O)[C@@H](NC(=O)OC(C)(C)C)C(C)(C)C)(C(=O)O)C1,HCV NS3/NS4A protease,,,0.6 µM
C=CCC(C=O)NC(=O)[C@H](CCC(=O)O)NC(=O)[C@H](CCC(=O)O)NC(=O)[C@H](CCSC)NC(=O)[C@H](CCC(=O)O)NC(=O)[C@H](CC(=O)O)NC(C)=O,NS3/NS4A protease,,,1.8 µM